Experimental findings from article PMC11492869, “Dimerization and lysine substitution of melittin have differing effects on bacteria” (Frontiers in Pharmacology, 2024) are described below.

Common to all, as to format: cell-based
For data set [1], the system named is H4IIE cells. The data set is described as follows: Cytotoxicity (cell lysis), LDH release assay. Conditions: for TI (cell lysis): H4IIE, LD50/MBC50. As to the method:
(§1) To determine toxicity toward mammalian cells, 1 × 10^4 cells/well of HEK-293 (ATCC CRL-1573TM) or H4IIE in a total volume of […] in media (Eagle’s Minimum Essential Medium (EMEM) supplemented with 10% v/v fetal bovine serum, 5% v/v L-glutamine and 5% v/v penicillin/streptomycin) were seeded into 96-well plates and cultured at 37°C in a 5% CO2 incubator for 16–20 h. When cells were ≥90% confluent, the 100 µL media was removed and replaced with 50 μL serial dilutions of the AMP in media (final concentration 20–0.5 μM) and cultured at 37°C in a 5% CO2 incubator for 90 min. From each well, 50 µL was transferred to a new plate. To the 50 μL, 50 µL of lactate dehydrogenase (LDH) solution (CytoTox 96® Non-Radioactive Cytotoxicity Assay kit, Promega) was added to each well and incubated for a further 30 min at room temperature and protected from light. Cell death was determined by measuring absorbance at 490 nm using a microplate reader (PerkinElmer 1,420 Multilabel Counter VICTOR3). Positive and negative controls for inhibition were taken as cells incubated with lysis solution (CytoTox 96® Non-Radioactive Cytotoxicity Assay kit, Promega) and cells incubated in media alone, respectively. The background absorbance of media alone was subtracted from the sample absorbance, and the percentage of inhibition was calculated using the following formula: % Cytotoxicity=A490 test sample−A490 negative control/A490 positive control−A490 negative control×100.
(§2) The percentage of lysis was plotted against peptide concentration, and linear regression analysis was used to determine the AMP concentration needed to lyse 50% (LD50) of the cells.

Data set [2] concerns HEK-293 (ATCC CRL-1573) cells. The data set is described as follows: Cytotoxicity (cell lysis), LDH release assay. Particulars: for TI (cell lysis): HEK293, LD50/MBC50. The procedure:
as §1, §2

The test system of data set [3] is H4IIE cells. The data set is described as follows: Inhibition of cell proliferation, MTS assay. Conditions: for TI (cell proliferation): H4IIE, IC50/MIC50. The procedure:
(§3) To determine the inhibition of cell proliferation, 20 μL of 3-(4,5-dimethylthiazol-2-yl)-5-(3-carboxymethoxyphenyl)-2-(4-sulfophenyl)-2H-tetrazolium (MTS) solution (CellTiter 96 AQueous Non-Radioactive Cell Proliferation Assay kit, Promega) was added to the remaining 100 µL from the toxicity assay, and the plates were incubated for a further 1 h at 37°C in a 5% CO2 incubator protected from light. Cell proliferation was determined by measuring absorbance at 490 nm using a microplate reader (PerkinElmer 1,420 Multilabel Counter VICTOR3). Positive and negative controls for inhibition were taken as cells incubated with lysis solution (CytoTox 96® Non-Radioactive Cytotoxicity Assay kit, Promega) and cells incubated in media alone, respectively. The background absorbance of media alone was subtracted from the samples, and the percentage of inhibition was calculated using the following formula: % Inhibition=A490 test sample−A490 negative control/A490 positive control−A490 negative control×100.
(§4) The percentage of inhibition was plotted against peptide concentration, and linear regression analysis was used to determine the AMP concentration needed to inhibit 50% (IC50) of cell growth.

Data set [4] deals with HEK-293 (ATCC CRL-1573) cells. The data set is described as follows: Inhibition of cell proliferation, MTS assay. Conditions: for TI (cell proliferation): HEK293, IC50/MIC50. As to the method: as §3, §4
In data set [5] the test system is Chicken red blood cells (RBCs). Briefly: Hemolysis assay. As to the method:
Chicken red blood cells (RBCs) in Alsever’s solution (RBCs, Equicell, Victoria, Australia) were diluted 1 in 20 in PBS (pH 7.4), pelleted by centrifugation, and washed three times in PBS (1,000 g, 10 min). The RBCs were counted using a cell counter (Coulter Particle Counter Z series, Beckman Coulter) and diluted to a final concentration of 2 × 10^7 cells/mL. Aliquots (100 μL) of the RBC solution were seeded into a V-bottomed 96-well plate containing 100 μL of serial dilutions (10–0.08 μM) of the AMP in PBS and incubated in a humidified atmosphere containing 5% CO2 at 37°C for 2 h. Following incubation, the RBCs were pelleted in a centrifuge (1,000 g, 10 min), and the amount of hemoglobin released in 100 μL aliquots of the supernatant was determined by measuring the absorbance at 405 nm using a microplate reader (PerkinElmer 1,420 Multilabel Counter VICTOR3). Positive and negative controls for hemolysis were taken as RBC lysed with 1% v/v Triton X-100 and RBC suspension in PBS, respectively. The percentage of hemolysis was calculated using the following formula: % Hemolysis A405 test sample−A405 negative control / A405 positive control−A405 negative controlx 100.
The percentage hemolysis was plotted against peptide concentration, and linear regression analysis was used to determine the hemolytic concentration needed to lyse 50% (HC50) of RBCs.

Turning to `CC[C@H](C)[C@H](NC(=O)CN)C(=O)NCC(=O)N[C@@H](C)C(=O)N[C@H](C(=O)N[C@@H](CC(C)C)C(=O)N[C@@H](CCCCN)C(=O)N[C@H](C(=O)N[C@@H](CC(C)C)C(=O)N[C@H](C(=O)N[C@H](C(=O)NCC(=O)N[C@@H](CC(C)C)C(=O)N1CCC[C@H]1C(=O)N[C@@H](C)C(=O)N[C@@H](CC(C)C)C(=O)N[C@H](C(=O)N[C@@H](CO)C(=O)N[C@@H](Cc1c[nH]c2ccccc12)C(=O)N[C@H](C(=O)N[C@@H](CCCCN)C(=O)N[C@@H](CCCNC(=N)N)C(=O)N[C@@H](CCCCN)C(=O)N[C@@H](CCCNC(=N)N)C(=O)N[C@@H](CCC(N)=O)C(=O)N[C@@H](CCC(N)=O)C(=O)NCCCC[C@H](N)C(=O)NCC(=O)N[C@H](C(=O)NCC(=O)N[C@@H](C)C(=O)N[C@H](C(=O)N[C@@H](CC(C)C)C(=O)N[C@@H](CCCCN)C(=O)N[C@H](C(=O)N[C@@H](CC(C)C)C(=O)N[C@H](C(=O)N[C@H](C(=O)NCC(=O)N[C@@H](CC(C)C)C(=O)N1CCC[C@H]1C(=O)N[C@@H](C)C(=O)N[C@@H](CC(C)C)C(=O)N[C@H](C(=O)N[C@@H](CO)C(=O)N[C@@H](Cc1c[nH]c2ccccc12)C(=O)N[C@H](C(=O)N[C@@H](CCCCN)C(=O)N[C@@H](CCCNC(=N)N)C(=O)N[C@@H](CCCCN)C(=O)N[C@@H](CCCNC(=N)N)C(=O)N[C@@H](CCC(N)=O)C(=O)N[C@@H](CCC(N)=O)C(N)=O)[C@@H](C)CC)[C@@H](C)CC)[C@@H](C)O)[C@@H](C)O)C(C)C)C(C)C)[C@@H](C)CC)[C@@H](C)CC)[C@@H](C)CC)[C@@H](C)O)[C@@H](C)O)C(C)C)C(C)C` [6. Antiparallel dimer], the LD50 was 4.66 ± 4.49 µM in the data set with H4IIE cells [1] (H4IIE cells, LDH release, 90 min exposure at 37°C, 20–0.5 μM, concentration lysing 50% of cells by linear regression, mean ± SD, at least three biological repeats) and 2.01 ± 0.66 µM in data set [2] (HEK293 cells, LDH release, 90 min exposure at 37°C, 20–0.5 μM, concentration lysing 50% of cells by linear regression, mean ± SD, at least three biological repeats). Moreover, the “TI (cell lysis)” value with H4IIE cells [1] (MBC50 toward S. aureus 29213) is recorded as 1.28; in the data set with H4IIE cells [1] (MBC50 towards E. coli 8729) it was 1.65; in data set [2] (MBC50 toward S. aureus 29213), 0.55; in data set [2] (MBC50 towards E. coli 8729), 0.71. The IC50 in the data set with H4IIE cells [3] (H4IIE cells, MTS proliferation assay after 90 min exposure, 1 h MTS, linear regression, mean ± SD, at least three biological repeats) was 7.91 ± 0.82 µM; in data set [4] (HEK293 cells, MTS proliferation assay after 90 min exposure, 1 h MTS, linear regression, mean ± SD, at least three biological repeats), 13 ± 1.91 µM. The “TI (cell proliferation)” value in the data set with H4IIE cells [3] (MIC50 toward S. aureus 29213) was determined as 3.06; in the data set with H4IIE cells [3] (MIC50 towards E. coli 8729), 2.63; in data set [4] (MIC50 toward S. aureus 29213) it was 5.01; in data set [4] (MIC50 towards E. coli 8729), 4.31. The molecule further displayed an HC50 in data set [5] (chicken RBCs in PBS pH 7.4, 2 × 10^7 cells/mL stock, 10–0.08 μM, 2 h at 37°C, absorbance 405 nm, 1% Triton X-100 positive control, mean ± SD, at least three biological repeats) of 0.29 ± 0.02 µM. For the same molecule, in data set [5] (chicken RBCs, HC50/MBC50, MBC50 toward S. aureus 29213), the “TI (hemolysis)” value was determined as 0.08. The “TI (haemolysis)” value in data set [5] (chicken RBCs, HC50/MBC50, MBC50 towards E. coli 8729) is recorded as 0.10.
